Measurements reported in PubChem BioAssay AID504761 (Drosophila RNAi Screening Center, 2011)
The screen tested about 22,000 reagents; below is an unselected part of those that have a named target and a result. Of all reagents, 116 (0.52%) were called active. 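Calls depend on retest data that are not deposited; infection was ranked per plate without normalising between plates; the unit of the infection score is not given.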 Raw values vary from plate to plate and are shown uncorrected. Entries without a mark were called inactive. Further read-outs or replicates are left out here. No sequences are given here. Not given: the amount of reagent, the time to read-out.

Aim: 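Insect host genes that dengue virus relies on to spread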 (primary screen)
System: D.Mel-2 cells from Drosophila
Reagent: long dsRNA against Drosophila genes
Conditions: infection with dengue virus type 2; dose and infection time not stated
Measured: 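Cells stained for dengue envelope protein and imaged; percent of infected cells per well on duplicate plates, ranked by infection, with stained nuclei counted for cell number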
Reading the numbers: infection score: higher = more virus-infected cells; cell count: higher = more cells in the well
Hit rule: 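Very low infection ranking in both replicate wells (chance probability at most 0.065), then a retest showing infection dropped 1.5-fold or more at p below 0.05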
Meaning of the calls: active = confirmed: knock-down lowers infection; inactive = not picked or not confirmed

Depletion of gNacalpha [DRSC00654] resulted in: infection score, replicate 1 = 6; cell count, replicate 1 = 6613.
For gNacalpha [DRSC29840] the deposit lists infection score, replicate 1 = 2.66; cell count, replicate 1 = 6246.
For CG17646 [DRSC00507], the entry reads infection score, replicate 1 = 5.02; cell count, replicate 1 = 6161.
With knock-down of CG32772 [DRSC18406], the screen gave infection score, replicate 1 = 2.56; cell count, replicate 1 = 5775.
With knock-down of CG32772 [DRSC22349] the results were infection score, replicate 1 = 3.21; cell count, replicate 1 = 5911.
With knock-down of CG11523 [DRSC11669], the screen gave infection score, replicate 1 = 14.2; cell count, replicate 1 = 5931.
CG11523 [DRSC26429] showed infection score, replicate 1 = 1.21; cell count, replicate 1 = 6283.
Against Wdr24 (WD repeat domain 24) [DRSC14151] the deposit lists infection score, replicate 1 = 7.36; cell count, replicate 1 = 6236.
For Sry-alpha (Serendipity alpha) [DRSC16867], the entry reads infection score, replicate 1 = 6.58; cell count, replicate 1 = 6014.
Knock-down of Sry-alpha (Serendipity alpha) [DRSC29189] came out at: infection score, replicate 1 = 12.2; cell count, replicate 1 = 6618.
After knock-down of eIF5 (eukaryotic translation initiation factor 5) [DRSC20165], the screen gave infection score, replicate 1 = 2.75; cell count, replicate 1 = 6217.
After knock-down of CG9917 [DRSC20218], the record shows infection score, replicate 1 = 14; cell count, replicate 1 = 6613.
Against Snap25 (Synaptosomal-associated protein 25kDa) [DRSC21228], the entry reads infection score, replicate 1 = 9.45; cell count, replicate 1 = 6299.
Snap25 (Synaptosomal-associated protein 25kDa) [DRSC21236] gave infection score, replicate 1 = 2.29; cell count, replicate 1 = 6856.
For CG6726 [DRSC16101], the values are infection score, replicate 1 = 0.63; cell count, replicate 1 = 6879.
Knock-down of CG6726 [DRSC28130] gave: infection score, replicate 1 = 17.7; cell count, replicate 1 = 6145.
After knock-down of CG9705 [DRSC11094], the screen gave infection score, replicate 1 = 4.03; cell count, replicate 1 = 6571.
For CG17974 [DRSC04299] the deposit lists infection score, replicate 1 = 12.3; cell count, replicate 1 = 5001.
For uri (unconventional prefoldin RPB5 interactor) [DRSC04111] the deposit lists infection score, replicate 1 = 11.3; cell count, replicate 1 = 6580.
For uri (unconventional prefoldin RPB5 interactor) [DRSC25077], the entry reads infection score, replicate 1 = 5.89; cell count, replicate 1 = 6194.
With knock-down of dnt (doughnut on 2) [DRSC03522] the results were infection score, replicate 1 = 10.6; cell count, replicate 1 = 6684.
Knock-down of dnt (doughnut on 2) [DRSC25886] resulted in: infection score, replicate 1 = 0.98; cell count, replicate 1 = 6109.

No new results follow: an excerpt of the list.
uri (unconventional prefoldin RPB5 interactor) [DRSC25077] | infection score, replicate 1: 5.89; cell count, replicate 1: 6194
dnt (doughnut on 2) [DRSC03522] | infection score, replicate 1: 10.6; cell count, replicate 1: 6684
